Measured values from several laboratories, pooled; numbers as filed in NIAID ChemDB.

All rows: growth or infection tests; organism: Staphylococcus aureus; read-out: MIC

Rows are shuffled and stem from different studies.

smiles | strain | result
CCCCCCCCCCCC[N+](C)(C)COC1CCCCCCCCCCC1 | ATCC33592 | 13.4 µM
CC[C@H]1OC(=O)[C@H](C)[C@@H](O[C@H]2C[C@@](C)(OC)[C@@H](O)[C@H](C)O2)[C@H](C)[C@@H](O[C@H]2O[C@@H](C)C[C@@H](N(C)C)[C@@H]2O)[C@](C)(O)C[C@@H](C)C(=O)[C@H](C)[C@@H](O)[C@]1(C)O | 33591 (erythromycin methicillin-resistant) | >64 µg/mL
COC(=S)NC[C@H]1CN(c2ccc3c(c2)-n2cccc2COC3)C(=O)O1 | ATCC 49951 (SMITH) | 0.5 µg/mL
CC[C@H]1OC(=O)[C@@](C)(F)C(=O)[C@H](C)[C@@H](O[C@@H]2O[C@H](C)C[C@H](N(C)C)[C@H]2O)[C@@]2(C)C[C@@H](C)C(=NC(C)=O)[C@H](C)[C@@H](OC/C(=N\OCc3ccc(C(N)=O)s3)CO2)[C@]1(C)O | 29213 (erythromycin A-susceptible) | 0.13 µg/mL
CCOC(=S)NC[C@H]1CN(c2ccc3c(c2)-n2cccc2COC3)C(=O)O1 | ATCC 49951 (SMITH) | 4 µg/mL
CCNc1c(F)cc2c(=O)c(C(=O)O)cn(-c3cc(N)c(F)cc3F)c2c1C | 209P | 0.008 µg/mL
NCCCNc1cc2c(cc1F)c(=O)c(C(=O)O)cn2-c1ccc(F)cc1F | ATCC 6538P | 0.39 µg/mL
CC[C@H]1OC(=O)[C@@](C)(F)C(=O)[C@H](C)[C@@H](O[C@@H]2O[C@H](C)C[C@H](N(C)C)[C@H]2O)[C@@]2(C)C[C@@H](C)C(=O)[C@H](C)[C@@H](OC/C(=N\OCc3ccc(-n4cccn4)nc3)CO2)[C@]1(C)O | 27660 (erythromycin A -resistant) | 0.06 µg/mL
CCCCCCCCCCCC[N+](C)(C)COCC(CC)CC | ATCC 6538 | 2.75 µM
CCOCCCNc1cc2c(cc1F)c(=O)c(C(=O)O)cn2C1CC1 | ATCC 6538P | >100 µg/mL
N#Cc1ccc(N2CCN(c3ccc(N4C[C@H](COc5ccncn5)OC4=O)cc3F)CC2)nc1 | 078 (oxford) | 16 µg/mL
CC[C@H]1OC(=O)[C@@](C)(F)C(=O)[C@H](C)[C@@H](O[C@@H]2O[C@H](C)C[C@H](N(C)C)[C@H]2O)[C@@]2(C)C[C@@H](C)C(=NC(C)=O)[C@H](C)[C@@H](OC/C(=N\OCc3ccc(-c4nccs4)nc3)CO2)[C@]1(C)O | 27660 (erythromycin A -resistant) | 0.25 µg/mL
C=C1COC2[C@@H](C)C(=NC(C)=O)[C@H](C)C[C@@](C)(OC1)[C@H](O[C@@H]1O[C@H](C)C[C@H](N(C)C)[C@H]1O)[C@@H](C)C(=O)[C@@H](C)C(=O)O[C@H](CC)[C@@]2(C)O | 33591 (erythromycin methicillin-resistant) | >64 µg/mL
CCC(=O)NC[C@H]1CN(c2ccc3c(c2)-n2cccc2COC3)C(=O)O1 | ATCC 29213 (MSSA) | 4 µg/mL
CC[C@H]1OC(=O)[C@H](C)C(=O)[C@H](C)[C@@H](O[C@@H]2O[C@H](C)C[C@H](N(C)C)[C@H]2O)[C@@]2(C)C[C@@H](C)C(=NC(C)=O)[C@H](C)[C@@H](OC/C(=N\OCc3ccc(C(N)=O)s3)CO2)[C@]1(C)O | 27660 (erythromycin A -resistant) | 0.13 µg/mL
COCC(C)Nc1cc2c(cc1F)c(=O)c(C(=O)O)cn2C1CC1 | ATCC 6538P | >100 µg/mL
CC[C@H]1OC(=O)[C@H](C)C(=O)[C@H](C)[C@@H](O[C@@H]2O[C@H](C)C[C@H](N(C)C)[C@H]2O)[C@@]2(C)C[C@@H](C)C(=NC(C)=O)[C@H](C)[C@@H](OC/C(=N\Oc3ccccc3)CO2)[C@]1(C)O | 25923 (erythromycin-susceptible) | 0.5 µg/mL
CC[C@H]1OC(=O)[C@@](C)(F)C(=O)[C@H](C)[C@@H](O[C@@H]2O[C@H](C)C[C@H](N(C)C)[C@H]2O)[C@@]2(C)C[C@@H](C)C(=NC(C)=O)[C@H](C)[C@@H](OC/C(=N\OCc3ccc(-c4ncccn4)s3)CO2)[C@]1(C)O | 27660 (erythromycin A -resistant) | 0.13 µg/mL
CCCCCCCCCCCC[N+](C)(C)COC1CCCCCC1 | ATCC33592 | 13.3 µM
CC[C@H]1OC(=O)[C@H](C)C(=O)[C@H](C)[C@@H](O[C@@H]2O[C@H](C)C[C@H](N(C)C)[C@H]2O)[C@@]2(C)C[C@@H](C)C(=NC(C)=O)[C@H](C)C(OC/C(=N/OCc3ccccc3)CO2)[C@]1(C)O | 27660 (erythromycin-resistant) | 1 µg/mL
CC(N)CCCCNc1cc2c(cc1F)c(=O)c(C(=O)O)cn2C1CC1 | ATCC 5278 (methicillin-resistant) | >100 µg/mL
Cc1c(NC(C)C)c(F)cc2c(=O)c(C(=O)O)cn(-c3cc(N)c(F)cc3F)c12 | W806 (methicillin-resistant) | 0.25 µg/mL
Cc1cn(-c2ccc(N3C[C@H](COc4ccon4)OC3=O)cc2F)cn1 | 122 (novobiocin-resistant) | 4 µg/mL
CC(C)(Br)C(=O)NC[C@H]1CN(c2ccc3c(c2)-n2cccc2COC3)C(=O)O1 | ATCC 33591 (MRSA) | 32 µg/mL
CC[C@H]1OC(=O)[C@@](C)(F)C(=O)[C@H](C)[C@@H](O[C@@H]2O[C@H](C)C[C@H](N(C)C)[C@H]2O)[C@@]2(C)C[C@@H](C)C(=NC(C)=O)[C@H](C)[C@@H](OC/C(=N\OCc3ccc(N)nc3)CO2)[C@]1(C)O | 33591 (erythromycin methicillin-resistant) | >64 µg/mL
CC[C@H]1OC(=O)[C@H](C)C(=O)[C@H](C)[C@@H](O[C@@H]2O[C@H](C)C[C@H](N(C)C)[C@H]2O)[C@@]2(C)C[C@@H](C)C(=NC(C)=O)[C@H](C)C(OC/C(=N\OCc3ccccc3)CO2)[C@]1(C)O | 25923 (erythromycin-susceptible) | 0.13 µg/mL
CS(=O)(=O)N[C@@H]1CCN(c2ccc(N3C[C@H](COc4ccon4)OC3=O)cc2F)C1 | 078 (oxford) | 1 µg/mL
CCCCCCCCOC[N+](C)(C)CCCCCCCC | ATCC 6538 | 14.9 µM
CCCCN(CCCC)CCCNc1cc2c(cc1F)c(=O)c(C(=O)O)cn2C1CC1 | ATCC 5278 (methicillin-resistant) | >100 µg/mL
CCCCC(=S)NC[C@H]1CN(c2ccc3c(c2)-n2cccc2COC3)C(=O)O1 | ATCC 33591 (MRSA) | 16 µg/mL
CCCCCCCCCCCC[N+](C)(C)COCCC | ATCC 6538 | 1.55 µM
CNc1c(F)cc2c(=O)c(C(=O)O)cn(-c3cc(N)c(F)cc3F)c2c1C | SMITH | <0.004 µg/mL
N#Cc1ccc(N2CCN(c3ccc(N4C[C@H](COc5ccccn5)OC4=O)cc3F)CC2)nc1 | 078 (oxford) | 1 µg/mL
CCCNCCCNc1cc2c(cc1F)c(=O)c(C(=O)O)cn2C1CC1 | ATCC 6538P | 25 µg/mL
O=C1O[C@@H](COc2ccon2)CN1c1ccc(N2CC(O)C2)c(F)c1 | 078 (oxford) | 16 µg/mL
CC[C@H]1OC(=O)[C@H](C)C(=O)[C@H](C)[C@@H](O[C@@H]2O[C@H](C)C[C@H](N(C)C)[C@H]2O)[C@](C)(OC)C[C@@H](C)C(=O)[C@H](C)[C@H]2N(CCCCn3cnc(-c4cccnc4)c3)C(=O)O[C@]12C | 33591 (erythromycin methicillin-resistant) | >64 µg/mL

Repeating the final 2 entries:

smiles,strain,result
O=C1O[C@@H](COc2ccon2)CN1c1ccc(N2CC(O)C2)c(F)c1,078 (oxford),16 µg/mL
CC[C@H]1OC(=O)[C@H](C)C(=O)[C@H](C)[C@@H](O[C@@H]2O[C@H](C)C[C@H](N(C)C)[C@H]2O)[C@](C)(OC)C[C@@H](C)C(=O)[C@H](C)[C@H]2N(CCCCn3cnc(-c4cccnc4)c3)C(=O)O[C@]12C,33591 (erythromycin methicillin-resistant),>64 µg/mL